PubChem BioAssay AID1259414 – Drosophila RNAi Screening Center, 2018

- Assay: 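Host factors increasing or decreasing Wolbachia levels in cultured fly cells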 (primary screen)
- Cell system: Drosophila JW18 cells infected with Wolbachia
- Reagents: long dsRNA against Drosophila genes, 0.25 µg dsRNA per well of a 384-well plate
- Time to read-out: 5 days
- Conditions: cells persistently infected with Wolbachia before knock-down; no added drug
- Measured: 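Imaged fluorescence in situ signal for Wolbachia 23S rRNA per DAPI-counted host cell, given as a robust z-score within each plate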
- Scale: Wolbachia per cell robust z: higher = more Wolbachia per host cell than the plate typical
- Active means: 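Active if absolute robust z reaches 1.5 in two or more of three replicates, leaving out multi- or no-target dsRNAs, genes unexpressed in JW18 and A1 wells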
In all, the deposit lists about 24,000 reagents; this is an unselected part of those with a known target gene and a result. In the full data, about 1,210 (5%) are marked active. 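Inactive calls also include excluded dsRNAs with several or no targets, genes unexpressed in JW18, and well A1, regardless of score.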 Names joined by + are all predicted targets of the reagent.

| gene | DRSC id | Wolbachia per cell robust z, rep 1 | Wolbachia per cell robust z, rep 2 | Wolbachia per cell robust z, rep 3 | outcome |
| --- | --- | --- | --- | --- | --- |
| Men | DRSC12924 | -1.26 | -2.28 | -3.11 | inactive |
| Men | DRSC16738 | 0.353 | -0.538 | 0.962 | inactive |
| Men | DRSC22694 | -2.27 | -0.227 | -0.0295 | inactive |
| Men | DRSC39137 | -0.0992 | 0.182 | 1.35 | inactive |
| CG13841 | DRSC14691 | -4.36 | 0.671 | 0.434 | inactive |
| CG13841 | DRSC26257 | 2.2 | 1.56 | 2.47 | active |
| janB | DRSC16973 | -0.499 | 0.421 | -0.672 | inactive |
| CG32806 | DRSC21699 | 0.63 | 1.14 | 0.683 | inactive |
| CG32806 | DRSC28307 | 0.357 | -1.11 | -0.586 | inactive |
| CG32806 | DRSC39095 | -0.377 | -0.428 | 0.098 | inactive |
| CG42264 | DRSC18074 | -0.235 | -0.689 | 0.725 | inactive |
| CG42264 | DRSC18075 | -0.737 | 0.0455 | 0.792 | inactive |
| CG42264 | DRSC28051 | 0.855 | 0.125 | 0.0893 | inactive |
| Brd7-9 | DRSC03017 | 0.216 | 0.011 | 0.825 | inactive |
| Brd7-9 | DRSC29592 | -1.54 | 0.532 | 1.67 | inactive |
| Mco1 | DRSC02720 | -3.63 | -0.845 | -0.44 | inactive |
| CG6216 | DRSC10606 | -0.271 | 0.506 | 0.0257 | inactive |
| CG6216 | DRSC28352 | -0.299 | 0.483 | 0.0908 | inactive |
| prg | DRSC03324 | 0.431 | 0.876 | 0.0724 | inactive |
| CG3769 | DRSC02723 | -0.36 | -0.968 | -0.264 | inactive |
| capu | DRSC00434 | 0.0692 | -1.33 | -0.419 | inactive |
| capu | DRSC27884 | 0.693 | 0.691 | 1.96 | inactive |
| capu | DRSC40797 | 0.315 | -1.26 | -0.0884 | inactive |
| CR4575 | DRSC18372 | -0.765 | -7.14 | -0.547 | inactive |
| CG7968 | DRSC01903 | 0.639 | 0.432 | 1.38 | inactive |
| CG5790 | DRSC02896 | -0.0926 | -4.69 | 0.842 | inactive |
| CG5790 | DRSC26201 | -0.11 | -0.702 | -0.304 | inactive |
| Wdr82 | DRSC02595 | -0.213 | 0.339 | -0.701 | inactive |
| Wdr82 | DRSC21723 | -2.6 | -0.899 | -1.54 | active |
| CG34188 | DRSC38869 | -0.297 | -0.119 | -0.235 | inactive |
| CG12448 | DRSC01967 | -2.16 | 0.272 | 0.271 | inactive |
| Gel | DRSC12350 | 0.274 | -1.12 | 0.468 | inactive |
| Gel | DRSC24569 | 0.961 | 0.459 | 0.934 | inactive |
| SMC5 | DRSC11849 | -0.11 | -1.07 | -0.307 | inactive |
| Cyp4p3 | DRSC07374 | -1.11 | -0.0331 | -0.165 | inactive |
| Cyp4p3 | DRSC26733 | -1.28 | -2 | -1.21 | inactive |
| fu | DRSC20333 | 0.298 | -0.359 | 0.428 | inactive |
| fu | DRSC27965 | -0.00557 | -0.152 | -3.94 | inactive |
| alpha-Man-IIa | DRSC15393 | 0.773 | -0.801 | 0.0917 | inactive |
| CG4502 | DRSC23237 | 0.422 | 0.143 | 0.0968 | inactive |
| Pi3K59F | DRSC04640 | 0.159 | 0.62 | -0.0761 | inactive |
| Pi3K59F | DRSC28890 | -0.608 | 0.04 | -0.0392 | inactive |
| His3.3B | DRSC17773 | -0.422 | -0.758 | -1.11 | inactive |
| His3.3B | DRSC18673 | 0.924 | 1.34 | -0.164 | inactive |
| His3.3B | DRSC28380 | 0.339 | -0.137 | -0.0577 | inactive |
| His3.3B | DRSC28708 | -1.41 | -0.839 | -0.928 | inactive |
| Or56a | DRSC07495 | -0.0748 | -0.148 | -1.45 | inactive |
| asRNA:CR43467 + Or46a | DRSC07489 | -0.448 | -0.308 | -0.551 | inactive |
| asRNA:CR43467 + Or46a | DRSC07490 | -3.72 | 0.686 | 0.19 | inactive |
| asRNA:CR43467 + Or46a | DRSC29654 | 0.982 | 1.25 | 1.11 | inactive |
| fliI | DRSC20578 | -0.0974 | -1.18 | 0.678 | inactive |
| mex1 | DRSC11368 | 0.526 | -0.799 | -0.721 | inactive |
| Ir94b | DRSC21439 | -0.878 | -0.709 | -0.625 | inactive |
| Ankrd49 | DRSC01894 | 0.747 | 0.902 | -0.195 | inactive |
| Ankrd49 | DRSC29117 | 1.35 | 1.4 | -0.331 | inactive |
| 825-Oak + CG32213 + CG32214 | DRSC27977 | 0.175 | -0.406 | 0.256 | inactive |
| Uch | DRSC00797 | 0.48 | 0.439 | -0.00401 | inactive |
| Dhdds | DRSC17756 | -0.0383 | 0.00011 | 0.526 | inactive |
| Dhdds | DRSC29011 | 0.551 | 1.31 | -0.106 | inactive |
| CG1077 | DRSC12146 | 0.95 | -1.16 | 0.503 | inactive |
| CG1077 | DRSC26068 | 0.708 | 1.79 | 0.402 | inactive |
| Deaf1 | DRSC11143 | -1.03 | 0.0548 | -2.44 | inactive |
| Deaf1 | DRSC22786 | -0.299 | -1.06 | -0.347 | inactive |
| Deaf1 | DRSC25984 | -0.504 | -0.201 | -0.489 | inactive |
| Dh31 | DRSC02196 | 0.158 | 0.81 | -0.86 | inactive |
| Dbp80 | DRSC22034 | 0.219 | 0.152 | 1.25 | inactive |
| sloth2 + sloth1 | DRSC17923 | -0.218 | -0.685 | -4.36 | inactive |
| Jon65Aii | DRSC10665 | 0.251 | 0.808 | 0.122 | inactive |

Laid out differently: 6 of the entries above
His3.3B [DRSC28708]
- Wolbachia per cell robust z, rep 1: -1.41
- Wolbachia per cell robust z, rep 2: -0.839
- Wolbachia per cell robust z, rep 3: -0.928
- outcome: inactive

Or56a [DRSC07495]
- Wolbachia per cell robust z, rep 1: -0.0748
- Wolbachia per cell robust z, rep 2: -0.148
- Wolbachia per cell robust z, rep 3: -1.45
- outcome: inactive

asRNA:CR43467 + Or46a [DRSC07489]
- Wolbachia per cell robust z, rep 1: -0.448
- Wolbachia per cell robust z, rep 2: -0.308
- Wolbachia per cell robust z, rep 3: -0.551
- outcome: inactive

asRNA:CR43467 + Or46a [DRSC07490]
- Wolbachia per cell robust z, rep 1: -3.72
- Wolbachia per cell robust z, rep 2: 0.686
- Wolbachia per cell robust z, rep 3: 0.19
- outcome: inactive

asRNA:CR43467 + Or46a [DRSC29654]
- Wolbachia per cell robust z, rep 1: 0.982
- Wolbachia per cell robust z, rep 2: 1.25
- Wolbachia per cell robust z, rep 3: 1.11
- outcome: inactive

fliI [DRSC20578]
- Wolbachia per cell robust z, rep 1: -0.0974
- Wolbachia per cell robust z, rep 2: -1.18
- Wolbachia per cell robust z, rep 3: 0.678
- outcome: inactive
